{"source": "patent US5776928A", "about": "(priority 1995, dated 1998)", "tested_on": "5-HT-2 receptor", "assay": "activity at the 5-HT-2 receptor", "details": "anhydrous Form I"}
{"smiles": "Cc1cc2c(s1)Nc1ccccc1N=C2N1CCN(C)CC1", "note": "[anhydrous Form I compound]", "values": [{"measurement": "activity at the 5-HT-2 receptor", "value": "active"}]}
